Measured values from several laboratories, pooled; numbers as filed in NIAID ChemDB.

Common to all: tests in culture; species: Varicella zoster virus; read-out: EC50

Conditions beyond the fields shown may differ between rows.

smiles	method	cells	strain	result
O=C(NCc1ccc(Cl)cc1)c1c[nH]c2c(F)cccc2c1=O	plaque count		MAG	1.1 µM
CC#Cc1cn([C@@H]2O[C@H](COP(=O)(OCC)Oc3ccccc3)[C@@H](O)[C@@H]2O)c(=O)[nH]c1=O	plaque count	MRC-5	G-31	>100 µM
Nc1nc2c(ncn2CCOCP(=O)(O)O)c(=O)[nH]1	plaque count	HEL	07/1 (TK-)	0.001 µg/mL
CCCCCCCc1cc2cnc(=O)[nH]c2o1	plaque count	HEL	OKA	>80 µM
O=c1[nH]c(=O)n([C@@H]2C[C@H](CO)C[C@H]2CO)cc1I		HEL	YS	>100 µg/mL
C#CCNc1nc(N)nc2c1ncn2/C=C1/C[C@@H]1CO	plaque count	HFF		>74 µM
O=c1[nH]c(=O)n([C@@H]2O[C@H](CO)[C@@H](O)[C@@H]2O)cc1/C=C/Br	cytopathic effect	HEL	Oka acyclovir-resistant	≥37.5 µM
CCCCC#Cc1cn(S(=O)(=O)c2ccc(C)cc2)c(=O)[nH]c1=O	plaque count	HEL	OKA	>16 µM
Nc1nc(N)c2ncn(CCOCP(=O)(O)O)c2n1	cytopathic effect	HEL	Oka CF1742-resistant	2.6 µM
CC1(C)[C@@H](CCO)C[C@H]1n1cnc2c(N)nc(N)nc21	plaque count	HEL	(TK-)07/1	50 µg/mL
C[C@H](NC(=S)Nc1ccc(NC(=O)c2cncs2)nc1)c1cc(C(F)(F)F)cc(C(F)(F)F)c1	ELISA	HFF	ELLEN	>7.5 µg/mL
CC(C)CS[C@H]1C[C@@H](n2cnc3c(N)ncnc32)[C@H](O)[C@@H]1O	cytopathic effect	HEL	OKA	>200 µg/mL
COc1cc(OC)c(NC(=S)Nc2ccc(NC(=O)c3ccco3)cn2)cc1Cl	ELISA	HFF	ELLEN	>10 µg/mL
CC1(C)[C@@H](CCO)C[C@H]1n1cnc2c(=O)[nH]c(N)nc21	plaque count	HEL	(TK-)/YS/R	>50 µg/mL
CCCCCSc1nc(N)nc2c1ncn2/C=C1/C[C@@H]1CO	plaque count	HFF		2.5 µM
O=C(O)P(=O)(O)O	cytopathic effect	HEL	Oka PFA-resistant/A	240 µM
OC[C@H]1CC(n2cnc3c(NC4CC4)ncnc32)C[C@@H]1CO		HEL	OKA	>100 µg/mL
CC#Cc1cn([C@@H]2O[C@H](COP(=O)(O)Oc3ccc(F)cc3)[C@@H](O)[C@@H]2O)c(=O)[nH]c1=O	plaque count	MRC-5	G-31	>100 µM
CCCCCc1ccc(-c2cc3cn(C4CC[C@@H](CO)O4)c(=O)nc3o2)cc1	plaque count	HEL	YS/R (TK-)	>20 µM
Nc1nccc2c1ncn2C[C@@H](CO)OCP(=O)(O)O	plaque count	HEL	YS (TK+)	0.09 µg/mL
C=CCOc1nc(N)nc2c1ncn2/C=C1/C[C@@H]1CO	plaque count	HFF		2.3 µM
CC1(C)[C@@H](CCO)C[C@H]1n1cnc2c(N)ncnc21	plaque count	HEL	(TK-)/YS/R	>20 µg/mL
O=c1ccn([C@@H]2C[C@H](CO)C[C@H]2CO)c(=O)[nH]1		HEL	OKA	>100 µg/mL
CC#Cc1cn([C@@H]2O[C@H](COP(=O)(O)OCCCCCCCCCCCCCCCC)[C@@H](O)[C@@H]2O)c(=O)[nH]c1=O	plaque count	MRC-5	G-31	100 µM
CCOP(=O)(O)COCCn1cnc2c(=O)[nH]c(N)nc21	plaque count	HEL	YS (TK+)	0.01 µg/mL
CCCc1ccc(-c2cc3cn(C4CC[C@@H](CO)O4)c(=O)nc3o2)cc1	plaque count	HEL	YS/R (TK-)	>50 µM
Nc1nc(OCC2CC2)c2ncn(/C=C3/C[C@@H]3CO)c2n1	plaque count	HFF		8.4 µM
CCCCCCCCCCC#Cc1c[nH]c(=O)[nH]c1=O	plaque count	HEL	OKA	>80 µM
COc1nc(N)nc2c1ncn2/C=C1/C[C@@H]1CO	plaque count	HFF		10 µM
CC1(C)[C@@H](CCO)C[C@H]1n1nnc2c(=O)[nH]cnc21	plaque count	HEL	TK+/YS	>20 µg/mL
Cc1cn([C@@H]2O[C@H](CO)[C@H]2CO)c(=O)[nH]c1=O	plaque count	HFF	V8602/7-1-3 (TK-)	1.2 µg/mL
CCCCCC#Cc1cn(S(=O)(=O)c2ccc(C)cc2)c(=O)[nH]c1=O	plaque count	HEL	OKA	>16 µM
CCCCCOc1nc(N)nc2c1ncn2/C=C1/C[C@@H]1CO	plaque count	HFF		>66 µM
CC#Cc1cn([C@@H]2O[C@H](COP(=O)(Oc3ccccc3)Oc3ccc([N+](=O)[O-])cc3)[C@@H](O)[C@@H]2O)c(=O)[nH]c1=O	plaque count	MRC-5	G-31	10–100 µM
Cc1ccc(S(=O)(=O)n2cc(I)c(=O)[nH]c2=O)cc1	plaque count	HEL	OKA	45 µM
CCCCCCCc1ccc(-c2cc3cn(C4CC[C@@H](CO)O4)c(=O)nc3o2)cc1	plaque count	HEL	YS (TK+)	>5 µM
Nc1nc(NC2CCCCC2)c2ncn(/C=C3/C[C@@H]3CO)c2n1	plaque count	HFF		180 µM
Nc1nc(N)c2ncn(CC(CO)OCP(=O)(O)O)c2n1	plaque count	HEL	YS/R (TK-)	1 µg/mL
Nc1nc2c(ncn2CCC(CO)CO)c(=O)[nH]1	cytopathic effect	HEL	OKA (WILD TYPE)	2.2 µM
Nc1nc(NCC2CC2)c2ncn(/C=C3/C[C@@H]3CO)c2n1	plaque count	HFF		10.8 µM

4 of the rows above, restated:

{"smiles": "Nc1nc2c(ncn2CCC(CO)CO)c(=O)[nH]1", "method": "cytopathic effect", "cells": "HEL", "strain": "OKA (WILD TYPE)", "result": "2.2 µM"}
{"smiles": "O=c1[nH]c(=O)n([C@@H]2C[C@H](CO)C[C@H]2CO)cc1I", "cells": "HEL", "strain": "YS", "result": ">100 µg/mL"}
{"smiles": "CCCCCSc1nc(N)nc2c1ncn2/C=C1/C[C@@H]1CO", "method": "plaque count", "cells": "HFF", "result": "2.5 µM"}
{"smiles": "CCOP(=O)(O)COCCn1cnc2c(=O)[nH]c(N)nc21", "method": "plaque count", "cells": "HEL", "strain": "YS (TK+)", "result": "0.01 µg/mL"}

ECn is the concentration giving n% inhibition of infection, replication or growth. An empty or dashed field is not shown. a–b is a range or a potency band.